Results of unrelated studies side by side (data: NIAID ChemDB).

Common to all: tests in culture; species: Coxsackie virus; read by: cytopathic effect; endpoint: EC50

Rows are shuffled and stem from different studies.

{"compound": "Nc1nccc2c1ncn2[C@@H]1C[C@H](CO)[C@@H](O)[C@H]1O", "cell line": "VERO", "strain": "TYPE B4", "result": "1 µg/mL"}
{"compound": "NC(=O)c1cn([C@@H]2O[C@H](CO)[C@@H](O)[C@H]2O)c2ncnc(N)c12", "cell line": "VERO", "strain": "TYPE B4", "result": "0.02 µg/mL"}
{"compound": "Cc1cn([C@@H]2C[C@H](CO)[C@@H](O)C2)c(=O)[nH]c1=O", "cell line": "HeLa", "strain": "TYPE B4", "result": ">100 µg/mL"}
{"compound": "Nc1ncnc2c1ccn2[C@H]1C[C@H](O)[C@@H](CO)O1", "cell line": "VERO", "strain": "TYPE B4", "result": "40 µg/mL"}
{"compound": "OC[C@H]1O[C@@H](n2cnc3cc(Cl)c(Cl)cc32)[C@H](O)[C@@H]1O", "cell line": "HeLa", "strain": "TYPE B4", "result": ">10 µg/mL"}
{"compound": "Nc1nc(Cl)c2ncn(C[C@H]3CC[C@@H](CO)C3)c2n1", "cell line": "VERO", "strain": "TYPE B4", "result": ">40 µg/mL"}
{"compound": "Nc1ncnc2c([C@@H]3O[C@H](CO)[C@@H](O)[C@H]3O)[nH]nc12", "cell line": "VERO", "strain": "TYPE B4", "result": "≥10 µg/mL"}
{"compound": "C[N+]1(C)CCN(c2ncnc(Cl)c2[N+](=O)[O-])CC1", "cell line": "HeLa", "strain": "B3", "result": ">70 µg/mL"}
{"compound": "Nc1ncnc2c1ncn2C[C@H](O)CO", "cell line": "HeLa", "strain": "TYPE B4", "result": ">400 µg/mL"}
{"compound": "Nc1nc2c(ncn2C[C@H]2CC[C@@H](CO)C2)c(=O)[nH]1", "cell line": "VERO", "strain": "TYPE B4", "result": ">200 µg/mL"}
{"compound": "NC(=O)c1ccnc([C@@H]2O[C@H](CO)[C@@H](O)[C@H]2O)c1", "cell line": "HeLa", "strain": "TYPE B4", "result": ">400 µg/mL"}
{"compound": "Cc1cn([C@@H]2CC[C@H](CO)C2)c(=O)[nH]c1=O", "cell line": "VERO", "strain": "TYPE B4", "result": ">400 µg/mL"}
{"compound": "Cc1nc(C2CCCCCC2)c([N+](=O)[O-])c(N2CC[N+]3(CC2)CC[N+]2(CCN(c4nc(C)nc(C5CCCCCC5)c4[N+](=O)[O-])CC2)CC3)n1", "cell line": "HeLa", "strain": "B3", "result": ">70 µg/mL"}
{"compound": "Nc1ncnc2c1ncn2[C@@H]1C=C(CO)[C@@H](O)[C@H]1O", "cell line": "HeLa", "strain": "TYPE B4", "result": ">10 µg/mL"}
{"compound": "NC(=O)c1csc([C@@H]2O[C@H](CO)[C@@H](O)[C@H]2O)n1", "cell line": "HeLa", "strain": "TYPE B4/JVB", "result": "86 µg/mL"}
{"compound": "Nc1ncnc2c1ncn2C[C@H](O)CO", "cell line": "HeLa", "strain": "TYPE B4", "result": ">400 µg/mL"}
{"compound": "Nc1ncnc2c1ccn2[C@@H]1O[C@H](CO)C[C@H]1O", "cell line": "VERO", "strain": "TYPE B4", "result": "60 µg/mL"}
{"compound": "O=[N+]([O-])c1ccc(N2CC[N+]3(CC2)CC[N+]2(CCN(c4ccc([N+](=O)[O-])cc4[N+](=O)[O-])CC2)CC3)c([N+](=O)[O-])c1", "cell line": "HeLa", "strain": "B3", "result": ">70 µg/mL"}
{"compound": "Cc1cn([C@H]2C[C@H](O)[C@@H](CO)[C@@H]2C)c(=O)[nH]c1=O", "cell line": "VERO", "strain": "TYPE B4", "result": ">400 µg/mL"}
{"compound": "O=[N+]([O-])c1c(Cl)ncnc1N1CC[N+]2(CC1)CC[N+]1(CCN(c3ncnc(Cl)c3[N+](=O)[O-])CC1)CC2", "cell line": "HeLa", "strain": "B3", "result": ">70 µg/mL"}
{"compound": "Cc1cn([C@H]2C[C@@H]3OC[C@H]2[C@@H]3CO)c(=O)[nH]c1=O", "cell line": "VERO", "strain": "TYPE B4", "result": ">400 µg/mL"}
{"compound": "Nc1nccc2c1ncn2[C@@H]1C=C[C@@H](O)[C@H]1O", "cell line": "HeLa", "strain": "TYPE B4", "result": ">400 µg/mL"}
{"compound": "O[C@@H]1[C@@H](OCc2ccccc2)[C@@H](COCc2ccccc2)O[C@H]1n1cnc2cc(Cl)c(Cl)cc21", "cell line": "HeLa", "strain": "TYPE B4", "result": ">10 µg/mL"}
{"compound": "Nc1ncnc2c1ccn2[C@@H]1O[C@H](CO)[C@@H](O)[C@H]1O", "cell line": "VERO", "strain": "TYPE B4", "result": "0.07 µg/mL"}
{"compound": "OCCOC(CO)n1cnc2cc(Cl)c(Cl)cc21", "cell line": "HeLa", "strain": "TYPE B4", "result": ">200 µg/mL"}
{"compound": "Nc1nccc2c1ncn2[C@@H]1C[C@H](CO)[C@@H](O)[C@H]1O", "cell line": "HeLa", "strain": "TYPE B4", "result": ">400 µg/mL"}
{"compound": "Cc1cc(N2CC[N+](C)(C)CC2)c([N+](=O)[O-])c(N2CC[N+](C)(C)CC2)c1", "cell line": "HeLa", "strain": "B3", "result": ">70 µg/mL"}
{"compound": "OC[C@H]1O[C@@H](n2cnc3cc(Cl)c(Cl)cc32)[C@H](O)[C@H]1O", "cell line": "HeLa", "strain": "TYPE B4", "result": ">10 µg/mL"}

ECn is the concentration giving n% inhibition of infection, replication or growth.